PubChem BioAssay AID504761 – Drosophila RNAi Screening Center | 2011
In all, the deposit lists about 22,000 reagents; below is an unselected part of those that have a named target and a result. In the full data, 116 (0.52%) got an active call. 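Calls depend on retest data that are not deposited; infection was ranked per plate without normalising between plates; the unit of the infection score is not given.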 Raw values vary from plate to plate and are shown uncorrected. The numbers tell different reagents against one gene apart. A plus sign joins genes that one reagent is predicted to hit. No sequences are given here. Not stated in the record: the amount of reagent, the time to read-out.

Purpose: 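Insect host genes that dengue virus relies on to spread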 (primary screen)
Cells: D.Mel-2 cells from Drosophila
Reagent: long dsRNA against Drosophila genes
Challenge: infection with dengue virus type 2; dose and infection time not stated
Measurement: 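Per well on two replicate plates, imaging gave the percent of cells positive for viral envelope protein, ranked by infection, and a nuclear count of cells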
Reading the numbers: infection score: higher = more virus-infected cells; cell count: higher = more cells in the well
Rule for the call: 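Very low infection ranking in both replicate wells (chance probability at most 0.065), then a retest showing infection dropped 1.5-fold or more at p below 0.05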
Calls: active = confirmed: knock-down lowers infection; inactive = not picked or not confirmed

| target gene | dsRNA no. | infection score, replicate 1 | infection score, replicate 2 | cell count, replicate 1 | cell count, replicate 2 | outcome |
| --- | --- | --- | --- | --- | --- | --- |
| CG3061 | 1 | 5.92 | 21.4 | 6593 | 5579 | inactive |
| CG3061 | 2 | 0.67 | 0.63 | 6570 | 6683 | active |
| CG4627 | 1 | 6.43 | 3.62 | 6188 | 6802 | inactive |
| rdgA (retinal degeneration A) | 1 | 2.8 | 3.62 | 6110 | 6468 | inactive |
| rdgA (retinal degeneration A) | 2 | 10.4 | 8.15 | 6431 | 6687 | inactive |
| rdgA (retinal degeneration A) | 3 | 3.87 | 3.93 | 6462 | 6965 | inactive |
| rdgA (retinal degeneration A) | 4 | 3.27 | 9.33 | 6460 | 6541 | inactive |
| rdgA (retinal degeneration A) | 5 | 20.3 | 22.3 | 6235 | 6761 | inactive |
| 7SLRNA:CR42652 + 7SLRNA:CR32864 | 1 | 5.05 | 26.2 | 5904 | 5638 | inactive |
| CrebB (Cyclic-AMP response element binding protein B) | 1 | 1.76 | 3.99 | 5579 | 5494 | inactive |
| CrebB (Cyclic-AMP response element binding protein B) | 2 | 7.1 | 4.66 | 5665 | 6079 | inactive |
| Cen (Centrocortin) | 1 | 12.5 | 10.1 | 6623 | 6526 | inactive |
| HBS1 | 1 | 11.5 | 16.5 | 6528 | 6498 | inactive |
| HBS1 | 2 | – | 7.1 | 359 | 5904 | inactive |

Next part (2 carried over from the part before).
| target gene | dsRNA no. | infection score, replicate 1 | infection score, replicate 2 | cell count, replicate 1 | cell count, replicate 2 | outcome |
| --- | --- | --- | --- | --- | --- | --- |
| HBS1 | 1 | 11.5 | 16.5 | 6528 | 6498 | inactive |
| HBS1 | 2 | – | 7.1 | 359 | 5904 | inactive |
| Pcif1 (Phosphorylated CTD-interacting factor 1) | 1 | 20.2 | 20.8 | 2197 | 5642 | inactive |
| Pcif1 (Phosphorylated CTD-interacting factor 1) | 2 | 5.24 | 2.85 | 6466 | 6487 | inactive |
| CanA-14F (Calcineurin A at 14F) | 1 | 2.75 | 2.86 | 6836 | 7027 | inactive |
| CG31677 | 1 | 4.38 | 9.38 | 6100 | 6570 | inactive |
| CG32681 | 1 | 7.36 | 14 | 6685 | 6143 | inactive |
| CG9117 | 1 | 8.14 | 13.8 | 5908 | 5432 | inactive |
| Sr-CII (Scavenger receptor class C, type II) | 1 | 16.4 | 6.12 | 5553 | 5780 | inactive |
| Sr-CII (Scavenger receptor class C, type II) | 2 | 3.66 | 4.34 | 6205 | 6608 | inactive |
| CG13367 | 1 | 12.7 | 4.07 | 6190 | 6535 | inactive |
| CG13367 | 2 | 10.3 | 1.91 | 6353 | 6350 | inactive |
| gukh (GUK-holder) | 1 | 1.99 | 1.02 | 6285 | 5880 | inactive |
| gukh (GUK-holder) | 2 | 1 | 8.16 | 6505 | 5651 | inactive |
| gukh (GUK-holder) | 3 | 2.58 | 1 | 6018 | 6498 | inactive |
| Rcd6 (Reduction in Cnn dots 6) | 1 | 15.1 | 15.7 | 6033 | 6141 | inactive |
| Rcd6 (Reduction in Cnn dots 6) | 2 | 38.4 | 14.8 | 5377 | 5683 | inactive |
| Gr59c (Gustatory receptor 59c) | 1 | 7.94 | 19.8 | 2908 | 4720 | inactive |
| adp (adipose) | 1 | 11.8 | 8.48 | 6211 | 6164 | inactive |
| Hexim (Hexamethylene bisacetamide inducible) | 1 | 6.93 | 6.38 | 6350 | 6552 | inactive |
| Mtr4 (Mtr4 helicase) | 1 | 26.6 | 22 | 4757 | 4765 | inactive |
| Pex19 (Peroxin 19) | 1 | 14.3 | 11.1 | 6473 | 5893 | inactive |
| CG15117 | 1 | 3.77 | 4.91 | 6097 | 6452 | inactive |
| CG15117 | 2 | 5.45 | 7.09 | 6052 | 5728 | inactive |
| CG15046 | 1 | 11.8 | 4.48 | 6153 | 6536 | inactive |
| PolD1 (DNA polymerase delta subunit 1) | 1 | 2.69 | 11 | 5460 | 4565 | inactive |
| PolD1 (DNA polymerase delta subunit 1) | 2 | 5.71 | 19.3 | 4533 | 5615 | inactive |
